Results of unrelated studies side by side (data: NIAID ChemDB).

All rows: growth or infection tests; species: HIV-1

An empty or dashed field is not shown.

{"smiles": "CC(C)C[C@H](NC(=O)[C@H](Cc1ccccc1)C[C@H](O)[C@H](Cc1ccccc1)NC(=O)OC(C)(C)C)C(=O)N[C@@H](Cc1ccccc1)C(N)=O", "endpoint": "EC50", "read by": "p24", "strain or isolate": "IIIB", "cells": "MT-4", "value": "<6 µM"}
{"smiles": "Cn1ncc2c1S(=O)(=O)N(CCc1ccccc1)C(=O)N2CCc1ccc(Cl)cc1", "endpoint": "EC50", "read by": "MTT", "strain or isolate": "IIIB", "cells": "MT-4", "value": ">47.5 µM"}
{"smiles": "O=c1[nH]cnc2c1ncn2[C@@H]1CC[C@H](CO)O1", "endpoint": "EC50", "cells": "PBMC", "value": ">100 µM"}
{"smiles": "Cn1c2ccccc2c2c1cc(C#N)c(=O)n2-c1ccc([N+](=O)[O-])cc1", "changes": "RT-M41L S68N G112S M184V", "endpoint": "EC50", "read by": "luciferase", "strain or isolate": "Recombinant", "cells": "HeLa", "value": "1.65 µM"}
{"smiles": "COC(=O)[C@@H](NC(=O)Cc1ccccc1)[C@@H]1N[C@@H](C(=O)NCCNC(=O)[C@@H]2N[C@@H]([C@H](NC(=O)Cc3ccccc3)C(=O)OC)SC2(C)C)C(C)(C)S1", "endpoint": "EC50", "read by": "cytopathic effect", "strain or isolate": "RF", "cells": "MT-4", "value": ">100 µM"}
{"smiles": "Cc1cn([C@H]2C[C@@H](N=[N+]=[N-])[C@@H](CO)O2)c(=O)[nH]c1=O", "endpoint": "EC50", "read by": "p24 / antigen", "strain or isolate": "NL4-3", "cells": "PBMC", "value": "0.022 µM"}
{"smiles": "Nc1nc2c(ncn2[C@@H]2C=C[C@H](CO)O2)c(=O)[nH]1", "endpoint": "EC50", "cells": "PBMC", "value": "14.1 µM"}
{"smiles": "CC(C)(C)[Si](C)(C)OC[C@H]1O[C@@H](n2cnc3c(=O)n(CC(=O)O)cnc32)[C@H](O[Si](C)(C)C(C)(C)C)[C@@H]1O", "endpoint": "EC50", "read by": "cytopathic effect / trypan blue", "strain or isolate": "IIIB", "cells": "MT-4", "value": "≥50 µM"}
{"smiles": "Cc1cn([C@H]2C[C@H](N=[N+]=[N-])[C@@H](CO)O2)c(=O)[nH]c1=O", "endpoint": "EC50", "read by": "p24 / RT activity", "strain or isolate": "BaL", "cells": "PBMC", "value": "0.00265 µM"}
{"smiles": "Cn1ncc2c1S(=O)(=O)N(CCc1ccccc1)C(=O)N2CCc1ccccc1", "endpoint": "EC50", "read by": "MTT", "strain or isolate": "IIIB", "cells": "MT-4", "value": ">319.4 µM"}
{"smiles": "Cc1cc(S(N)(=O)=O)ccc1NC(=O)COc1ccc(Cl)cc1C(=O)c1cc(Cl)cc(C#N)c1", "changes": "RT-P225H", "endpoint": "EC50", "read by": "β-galactosidase", "strain or isolate": "NNRTI-resistant (RT P225H)", "cells": "MAGI", "value": "0.0003 µM"}
{"smiles": "CCn1nc(Cn2cc(C)c(=O)[nH]c2=O)nc1C", "endpoint": "EC50", "strain or isolate": "IIIB", "cells": "MT-4", "value": ">64 µg/mL"}
{"smiles": "Cc1ccnc2c1NC(=O)c1cccnc1N2C1CC1", "endpoint": "EC50", "read by": "p24", "strain or isolate": "BRU", "cells": "CEM", "value": "0.039 µM"}
{"smiles": "CCCC(C)(C)[Si](C)(C)OC[C@H]1O[C@@H](n2cc(C)c(=O)n(CC(=O)O)c2=O)[C@H](O[Si](C)(C)C(C)(C)CCC)[C@@H]1O", "endpoint": "EC50", "read by": "syncytia", "strain or isolate": "IIIB", "cells": "CEM", "value": ">10 µM"}
{"smiles": "Nc1ccn([C@H]2CC[C@@H](CO)O2)c(=O)n1", "endpoint": "EC50", "read by": "MTT", "strain or isolate": "ROD", "cells": "MT-4", "value": "0.104 µg/mL"}
{"smiles": "Cc1cn([C@@H]2O[C@H](CO[Si](C)(C)C(C)(C)C)[C@@H](O)[C@H]2O[Si](C)(C)C(C)(C)C)c(=O)n(CC#N)c1=O", "endpoint": "EC50", "read by": "syncytia", "strain or isolate": "IIIB", "cells": "CEM", "value": ">10 µM"}
{"smiles": "CC(C)CN(C[C@@H](O)[C@H](Cc1ccccc1)NC(=O)O[C@H]1CCOC1)S(=O)(=O)c1ccc(N)cc1", "changes": "PR-D30N M46I A71V", "endpoint": "EC50", "read by": "p24", "strain or isolate": "NL4-3", "cells": "MT-4", "value": "<0.04 µM"}
{"smiles": "Nc1ccn([C@@H]2CC(CO)(CO)CO2)c(=O)n1", "endpoint": "EC50", "cells": "MT-4", "value": ">100 µg/mL"}
{"smiles": "Cc1cn([C@@H]2O[C@H](COC(=O)c3ccccc3)[C@@H](O)[C@H]2OC(=O)c2ccccc2)c(=O)n(CC(=O)O)c1=O", "endpoint": "EC50", "read by": "cytopathic effect / trypan blue", "strain or isolate": "IIIB", "cells": "MT-4", "value": ">50 µM"}
{"smiles": "Cn1ncc2c1S(=O)(=O)N(CCc1ccc(Cl)cc1)C(=O)N2CCc1ccc(Cl)cc1", "endpoint": "EC50", "read by": "MTT", "strain or isolate": "IIIB", "cells": "MT-4", "value": ">6.7 µM"}
{"smiles": "Cc1cn([C@@H]2O[C@H](CO[Si](C)(C)C(C)(C)C)[C@@H](O[Si](C)(C)C(C)(C)C)[C@H]2O)c(=O)n(CC(=O)ON)c1=O", "endpoint": "EC50", "read by": "syncytia", "strain or isolate": "IIIB", "cells": "CEM", "value": ">2 µM"}
{"smiles": "Cc1cn([C@H]2C[C@H](N=[N+]=[N-])[C@@H](CO)O2)c(=O)[nH]c1=O", "endpoint": "EC50", "read by": "p24", "strain or isolate": "BaL", "cells": "Macrophage + Monocytes/macrophages", "value": "<0.1 µM"}
{"smiles": "Nc1nc2c(ncn2[C@@H]2CC[C@H](CO)O2)c(=O)[nH]1", "endpoint": "EC50", "cells": "PBMC", "value": ">100 µM"}
{"smiles": "CC(C)(C)NC(=O)[C@@H]1C[C@@H]2CCCC[C@@H]2CN1C[C@@H](O)[C@H](Cc1ccccc1)NC(=O)[C@H](CC(N)=O)NC(=O)c1ccc2ccccc2n1", "changes": "PR-L10R M46I", "endpoint": "EC95", "read by": "p24", "strain or isolate": "NL4-3", "cells": "MT-4", "value": "0.025 µM"}
{"smiles": "CCCCCCCCCCCCCCCCCCCCCCOC[C@H](CO[C@]1(C(=O)O)C[C@H](OS(=O)(=O)O)[C@@H](NC(C)=O)[C@H]([C@H](OS(=O)(=O)O)[C@@H](COS(=O)(=O)O)OS(=O)(=O)O)O1)OCCCCCCCCCCCCCCCCCCCCCC", "endpoint": "EC50", "read by": "p24", "strain or isolate": "10001 Clinical isolate", "cells": "PBMC", "value": "20 µM"}
{"smiles": "O=c1ccn([C@@H]2CC(CO)(CO)CO2)c(=O)[nH]1", "endpoint": "EC50", "cells": "MT-4", "value": ">100 µg/mL"}
{"smiles": "Cc1cn([C@H]2C[C@H](N=[N+]=[N-])[C@@H](CO)O2)c(=O)[nH]c1=O", "endpoint": "EC50", "read by": "RT activity", "strain or isolate": "xxBRU WT", "cells": "PBMC", "value": "<0.01 µM"}
{"smiles": "Cn1ncc2c1S(=O)(=O)N(CCc1ccccc1)C(=O)N2CCc1ccc(C#N)cc1", "endpoint": "EC50", "read by": "MTT", "strain or isolate": "IIIB", "cells": "MT-4", "value": ">20.4 µM"}
{"smiles": "CCCCCCCCCCCCCCCCCCCCCCOCC(C)(COCCCCCCCCCCCCCCCCCCCCCC)CO[C@]1(C(=O)O)C[C@H](OS(=O)(=O)O)[C@@H](NC(C)=O)[C@H]([C@H](OS(=O)(=O)O)[C@@H](COS(=O)(=O)O)OS(=O)(=O)O)O1", "endpoint": "EC50", "read by": "syncytia", "strain or isolate": "IIIB", "cells": "H9", "value": "1 µM"}
{"smiles": "CCc1cn([C@@H]2O[C@H](CO[Si](C)(C)C(C)(C)C)[C@@H](O)[C@H]2O[Si](C)(C)C(C)(C)C)c(=O)n(CC(=O)O)c1=O", "endpoint": "EC50", "read by": "syncytia", "strain or isolate": "IIIB", "cells": "CEM", "value": "2 µM"}
{"smiles": "CCCc1cc(=O)oc2c3c(c4c(c12)OC(C)(C)C=C4)O[C@H](C)[C@@H](C)[C@@H]3O", "endpoint": "EC50", "read by": "cytopathic effect / XTT", "strain or isolate": "RF", "cells": "CEM + CEM-SS", "value": "0.27 µM"}
{"smiles": "CCCCCCCCCCCCCCCCCCCCCCOC[C@H](CO[C@@]1(C(=O)O)C[C@H](OS(=O)(=O)O)[C@@H](NC(C)=O)[C@H]([C@H](OS(=O)(=O)O)[C@@H](COS(=O)(=O)O)OS(=O)(=O)O)O1)OCCCCCCCCCCCCCCCCCCCCCC", "endpoint": "EC50", "read by": "p24", "strain or isolate": "IIIB", "cells": "H9", "value": "2 µM"}
{"smiles": "N#Cc1cc2[nH]c3ccccc3c2n(-c2ccc([N+](=O)[O-])cc2)c1=O", "endpoint": "EC50", "read by": "luciferase", "strain or isolate": "NL4-3 WT", "cells": "HeLa", "value": "0.1769 µM"}
{"smiles": "CC(C)CN(C[C@@H](O)[C@H](Cc1ccccc1)NC(=O)[C@H](CC(N)=O)NC(=O)c1ccc2ccccc2n1)C(=O)NC(C)(C)C", "changes": "PR-L10R M46I L63P", "endpoint": "EC95", "read by": "p24", "strain or isolate": "NL4-3", "cells": "MT-4", "value": "0.2 µM"}
{"smiles": "Cc1cn([C@H]2C[C@H](OC=O)[C@@H](CO)O2)c(=O)[nH]c1=O", "endpoint": "EC50", "read by": "cytopathic effect", "cells": "CEM", "value": ">20 µM"}
{"smiles": "CC(=O)N[C@H]1[C@H]([C@H](OS(=O)(=O)O)[C@@H](COS(=O)(=O)O)OS(=O)(=O)O)O[C@@](OCCCCCCCCCCCCCCCC(=O)O)(C(=O)O)C[C@@H]1OS(=O)(=O)O", "endpoint": "EC50", "read by": "p24", "strain or isolate": "IIIB", "cells": "H9", "value": "139 µM"}
{"smiles": "Cc1cn(Cc2nc(C)n(C)n2)c(=O)[nH]c1=O", "endpoint": "EC50", "strain or isolate": "IIIB", "cells": "MT-4", "value": ">82 µg/mL"}
{"smiles": "C#C[C@@]1(CO)CC[C@H](n2cnc3c(N)nc(F)nc32)O1", "endpoint": "EC50", "read by": "p24 / antigen", "strain or isolate": "NL4-3", "cells": "PBMC", "value": "0.57 µM"}
{"smiles": "CC1(C)S[C@H]([C@H](NC(=O)Cc2ccccc2)C(=O)NCc2ccccc2)N[C@H]1C(=O)NCCNC(=O)[C@@H]1N[C@@H]([C@H](NC(=O)Cc2ccccc2)C(=O)NCc2ccccc2)SC1(C)C", "endpoint": "EC50", "read by": "p24", "strain or isolate": "RF", "cells": "MT-4", "value": "0.06 µM"}
{"smiles": "C[C@H](Cn1cnc2c(N)ncnc21)OCP(=O)(O)O", "endpoint": "EC50", "read by": "p24 / antigen", "strain or isolate": "NL4-3", "cells": "PBMC", "value": "3.3 µM"}
{"smiles": "CC(=O)[C@H]1CC[C@H]2[C@@H]3CCC4=CC(=O)CC[C@]4(C)[C@H]3CC[C@]12C", "endpoint": "EC50", "read by": "p24", "strain or isolate": "LTR-CAT", "cells": "U-937", "value": ">0.1 µM"}
{"smiles": "Nc1ccn([C@@H]2C=C(F)[C@H](CO)S2)c(=O)n1", "changes": "RT-M184V", "endpoint": "EC90", "read by": "RT activity", "strain or isolate": "3TC-resistant (RT M184V)", "cells": "PBMC", "value": ">100 µM"}

Again, the opening 3 rows:

smiles,changes,endpoint,read by,strain or isolate,cells,value
CC(C)C[C@H](NC(=O)[C@H](Cc1ccccc1)C[C@H](O)[C@H](Cc1ccccc1)NC(=O)OC(C)(C)C)C(=O)N[C@@H](Cc1ccccc1)C(N)=O,-,EC50,p24,IIIB,MT-4,<6 µM
Cn1ncc2c1S(=O)(=O)N(CCc1ccccc1)C(=O)N2CCc1ccc(Cl)cc1,-,EC50,MTT,IIIB,MT-4,>47.5 µM
O=c1[nH]cnc2c1ncn2[C@@H]1CC[C@H](CO)O1,-,EC50,-,-,PBMC,>100 µM

ECn: concentration that inhibits the pathogen or its effect by n%. Rows are shuffled and stem from different studies.